The list shows a part of the results, in another mix than the full data. Activity calls are given as the source filed them. Cut-off read from the data, not from the text of the source: active = max response mostly above about 13% (no sharp cut-off); inactive = mostly below about 14%.

A short description of the experiment: Cycloheximide Counterscreen for Small Molecule Inhibitors of Shiga Toxin. Note: read at 38.3 µM for the half of the compounds with a filed dose; 0% is about no effect. Conditions: cell reporter, cycloheximide protein synthesis inhibition counterscreen; active compounds read high. In general terms: Counterscreens check selectivity or assay interference.
In the case of `O=C(NCC1(N2CCOCC2)CCCCC1)c1cc2ccccc2o1`, the max response is inactive: -5.02%. The same measure for `Cc1cc(C)cc(N(C(=O)c2ccccc2)C2CCN(C(=O)OC(C)(C)C)CC2)c1`: inactive: -3.15%; for `CCOC(=O)N1CCC(Nc2ccc(OC)cc2)CC1`: inactive: 2.71%; for `N#CC1(Nc2ccccc2)CCN(Cc2ccccc2)CC1`: inactive: 0.505%. To `O=C(OC1CN2CCC1CC2)C1c2ccccc2Oc2ccccc21` (configuration not stated) belongs inactive: -2.1%; to `O=C(NCC1(N2CCCCC2)CCCCC1)c1ccc(=O)[nH]c1`, inactive: 1.48%. As to `COc1ccc(C(=O)NCC2(N3CCCCC3)CCCCC2)cc1`, the max response was inactive: 2.39%.

For `CC(C)(C)OC(=O)N1CCC(N(C(=O)c2ccccc2)c2ccc(F)cc2)CC1`, the max response is inactive: -5.81%. The same measure for `COc1ccc(C(=O)NCC2(N3CCCCC3)CCCCC2)c(OC)c1OC`: inactive: -1.95%; for `CSc1ccccc1C(=O)NCC1(N2CCCCC2)CCCCC1`: inactive: 8.04%. To `CCOC(=O)N1CCC(Nc2cccc(C)c2)CC1` belongs inactive: -0.993%; to `COc1cc(C(=O)NCC2(N(C)C)CCCCC2)ccc1OC(F)F`, inactive: 0.256%; to `Cc1ccc(OCC(C)C)c(CN(CCCl)CCCl)c1`, inactive: 0.778%. The same measure for `CCOc1ccc(C)cc1CN(CCCl)CCCl`: inactive: 11.3%; for `O=C(NCC1(N2CCCCC2)CCCCC1)c1ccc(F)cc1`: inactive: -1.62%.

Turning to `CCOC(=O)N1CCC(Nc2ccc(F)cc2)CC1`, the max response was inactive: 0.35%. To `COc1ccc(NC2CCN(CCc3ccccc3)CC2)c(OC)c1` belongs inactive: -4.56%.

On to `O=C(NCC1(N2CCCCC2)CCCCC1)c1cccc(C(F)(F)F)c1`, for which the max response was inactive: -0.944%.

In the case of `O=[N+]([O-])c1cc([N+](=O)[O-])c(NCC2CCS(=O)(=O)C2)c([N+](=O)[O-])c1` (configuration not stated), the max response was inactive: 5.69%. The same measure for `COc1ccc(NC2CCN(C(=O)OC(C)(C)C)CC2)cc1`: inactive: 8.8%; for `CN1CCN(CCOC(=O)C(O)(c2ccccc2)c2ccccc2)CC1`: inactive: -3.22%. The same measure for `O=C(NCC1(N2CCOCC2)CCCCC1)c1cc(=O)[nH]c2ccccc12`: inactive: 0.981%; for `COc1cc(C(=O)NCC2(N3CCCCC3)CCCCC2)ccc1OC(F)F`: inactive: -5.15%. The same measure for `O=C(NCC1(N2CCCCC2)CCCCC1)c1ccc(OC(F)F)cc1`: inactive: -2.82%; for `O=C(NCC1(N2CCCCC2)CCCCC1)c1cccc([N+](=O)[O-])c1`: inactive: -9.65%.

Consider `CCN1CCC(Nc2ccc(Cl)cc2)CC1`, for which the max response was inactive: -1.63%. In the case of `N#CC1(Nc2ccccc2)CCN(CCc2ccccc2)CC1`, the max response was inactive: -4.41%.

The record behind these values is PubChem BioAssay AID2314 (National Center for Advancing Translational Sciences (NCATS), 2010).
